Measured values from several laboratories, pooled; numbers as filed in NIAID ChemDB.

Common to all: whole-cell or culture tests; species: HIV-1; read by: RT activity; endpoint: EC50

Blank or dashed fields: not listed here.

compound | strain | cells | setting | changes | result
CN1c2c(-c3ccccc3)nn(CC(=O)N/N=C/c3ccc(Cl)cc3Cl)c2-c2ccccc2S1(=O)=O | LAV-1 | PBMC | - | - | >100 µM
Cc1nc(CCCCCCC(=O)c2ccccc2)n2nc(NCCCCCCN)ccc12 | LAI | CEM + CEM TK- | - | - | 9 µM
Nc1ccn([C@@H]2C=C(F)[C@H](CO)O2)c(=O)n1 | BRU-184V | PBMC | - | RT-M184V | <82 µM
Cc1cncc(C(=O)N[C@@]23CC[C@]4(C)[C@H](CC[C@@H]5[C@@]6(C)CC[C@H](OC(=O)CC(C)(C)C(=O)O)C(C)(C)[C@@H]6CC[C@]54C)C2=C(C(C)C)C(=O)C3)c1 | IIIB | MT-2 | 30% human serum | - | <0.199 µM
COc1ncc(OC)c2c(C(=O)C(=O)N3CCN(C(=O)c4ccccc4)CC3)c[nH]c12 | LAI | MT-2 | - | - | 0.0041 µM
CC(C)C1=C2[C@H]3CC[C@@H]4[C@@]5(C)CC[C@H](OC(=O)CC(C)(C)C(=O)O)C(C)(C)[C@@H]5CC[C@@]4(C)[C@]3(C)CC[C@@]2(NC(=O)NC2CCN(C(=O)OC(C)(C)C)CC2)CC1=O | IIIB | MT-2 | 30% human serum | - | <0.199 µM
CC1=N/C(=C/c2ccco2)C(=O)N1c1nc(C)cc(Cl)n1 | - | - | - | - | 86.24 µg/mL
Cc1cccc2c(C(=O)C(=O)N3CCN(C(=O)c4ccccc4)CC3)c[nH]c12 | - | MT-2 | - | - | <10 µM
CC(C)C1=C2C3CCC4[C@@]5(C)CC[C@H](OC(=O)CC(C)(C)C(=O)O)C(C)(C)C5CC[C@@]4(C)[C@]3(C)CC[C@@]2(NC(=O)C2CCCCC2)CC1=O | IIIB | MT-2 | 30% human serum | - | <0.199 µM
Cc1cc(=O)[nH]c(N2C(=O)/C(=C\c3ccco3)N=C2c2ccccc2)n1 | - | - | - | - | 49.12 µg/mL
CN1c2c(-c3ccccc3)nn(CC(=O)N/N=C/c3ccc([N+](=O)[O-])cc3)c2-c2ccccc2S1(=O)=O | LAV-1 | PBMC | - | - | >100 µM
Cc1cc(Cl)nc(N2C(=O)/C(=C\c3ccc(Cl)cc3Cl)N=C2c2ccccc2)n1 | - | - | - | - | 54.16 µg/mL
O=C(CNC(=O)COc1ccccc1)NCc1ccc(C(=O)N2CCCCC2)cc1 | CMU08 | PBMC | - | - | 17.7 µM
O=c1[nH]c(=O)n([C@H]2C=C[C@@H](CO)O2)cc1CO | Nevirapine-resistant | CEM + CEM-SS | - | - | 0.2 µM
COc1cc(/C=C2/N=C(c3ccccc3)N(c3nc(C)cc(Cl)n3)C2=O)cc(OC)c1OC | - | - | - | - | 30.96 µg/mL
CN1c2c(-c3ccccc3)nn(CC(=O)N/N=C/c3ccccc3F)c2-c2ccccc2S1(=O)=O | LAV-1 | PBMC | - | - | >100 µM
Nc1ncnc2c1ncn2[C@@H]1O[C@H](CO)[C@H]1CO | HXB2(RT-V75I) Recombinant | MT-2 | - | RT-V75I | 1.7 µM
CN1c2c(-c3ccccc3)nn(CC(=O)N/N=C/c3ccc(Cl)c(Cl)c3)c2-c2ccccc2S1(=O)=O | LAV-1 | PBMC | - | - | >100 µM
CC(C)C1=C2C3CCC4[C@@]5(C)CC[C@H](OC(=O)CC(C)(C)C(=O)O)C(C)(C)C5CC[C@@]4(C)[C@]3(C)CC[C@@]2(NC(=O)OCCN2CCCC2)CC1=O | IIIB | MT-2 | 30% human serum | - | <0.199 µM
CCCc1cc(=O)oc2c3c(c4c(c12)OC(C)(C)CC4)O[C@@H](C)[C@H](C)[C@@H]3O | CLADE D | PBMC | - | - | 0.2 µM
COC(c1ccc(-c2ccccc2)cc1)C(F)(F)c1nc2ccccc2o1 | LAI | CEM + CEM-SS | - | - | >100 µM
CCN1C[C@H](C)n2c(c(O)c3c(=O)n(Cc4ccc(F)c(Cl)c4)nc(C(=O)NC)c32)C1=O | NL4-3 | PM1 | - | E138K | 0.0012 µM
CC(C)C1=C2C3CCC4[C@@]5(C)CC[C@H](OC(=O)CC(C)(C)C(=O)O)C(C)(C)C5CC[C@@]4(C)[C@]3(C)CC[C@@]2(NC(=O)Cc2ccccc2)CC1=O | IIIB | MT-2 | 30% human serum | - | <0.199 µM
C[C@H]1CO[C@@H]2Cn3cc(C(=O)NCc4ccc(F)cc4F)c(=O)c(O)c3C(=O)N12 | NL4-3 | CBMC | - | M50I | 0.00053 µM
COc1ccnc2[nH]cc(C(=O)C(=O)N3CCN(C(=O)c4ccccc4)C[C@H]3C)c12 | NL4-3(GP120-R350K) Recombinant | MT-2 | - | GP120-R350K | 0.038 µM
CN1c2c(-c3ccccc3)nn(CC(=O)N/N=C/c3ccccc3Br)c2-c2ccccc2S1(=O)=O | LAV-1 | PBMC | - | - | >100 µM
CC(C)C1=C2[C@H]3CC[C@@H]4[C@@]5(C)CC[C@H](OC(=O)CC(C)(C)C(=O)O)C(C)(C)[C@@H]5CC[C@@]4(C)[C@]3(C)CC[C@@]2(NC(=O)c2ccnn2C)CC1=O | IIIB | MT-2 | 30% human serum | - | <0.199 µM
Cc1nc(CCCCCCC(=O)c2ccccc2)n2nc(NCCCCCCCCCCNCc3cn([C@H]4C=C[C@@H](CO)O4)c(=O)[nH]c3=O)ccc12 | LAI | CEM + CEM TK- | - | - | 8.5 µM
O=C(O)CCN(CCN(CC(=O)O)Cc1cnc2c(O)cccc2c1)CC(=O)O | B-92US026 Primary isolate | PBMC | - | - | 15 µM
Cc1nc(C(=O)N[C@@]23CC[C@]4(C)C(CCC5[C@@]6(C)CC[C@H](OC(=O)CC(C)(C)C(=O)O)C(C)(C)C6CC[C@]54C)C2=C(C(C)C)C(=O)C3)cs1 | IIIB | MT-2 | 30% human serum | - | <0.199 µM
O=C(OC(c1ccccc1)C(F)(F)c1nc2ccccc2o1)c1cccc(C(F)(F)F)c1 | LAI | CEM + CEM-SS | - | - | >100 µM
Nc1nc(NC2CC2)c2ncn([C@H]3CO[C@@H](CO)O3)c2n1 | HXB2(RT-K65R) Recombinant | MT-2 | - | RT-K65R | 1 µM
Cc1nc(CCCCCCC(=O)c2ccccc2)n2nc(Cl)ccc12 | Nevirapine-resistant | CEM + CEM-SS | - | - | >10 µM
O=C(C(=O)N1CCN(C(=O)c2cccc(Cl)c2F)CC1)c1c[nH]c2ccccc12 | BRU | MT-2 | - | - | <10 µM
CCCCCCCCCCCCCCCCOP(=O)(OC[C@H]1OC(O)[C@@H](O)[C@@H](O)[C@@H]1O)OC[C@H]1O[C@@H](n2cc(C)c(=O)[nH]c2=O)C[C@@H]1N=[N+]=[N-] | LAV-Bru | U-937 | 11 d | - | >1 µM
Cc1cc(=O)[nH]c(N2C(=O)/C(=C\c3ccccc3O)N=C2c2ccccc2)n1 | - | - | - | - | 51.26 µg/mL
COc1cc(-c2ccc(N=Nc3ccc4c(S(=O)(=O)O)cc(S(=O)(=O)O)c(N)c4c3O)c(OC)c2)ccc1N=Nc1ccc2c(S(=O)(=O)O)cc(S(=O)(=O)O)c(N)c2c1O | IIIB | CEM + CEM-SS | - | - | 1.8 µM
CC(C)(C)c1ccc(C(=O)N2CCN(C(=O)C(=O)c3c[nH]c4ccccc34)CC2)cc1 | BRU | MT-2 | - | - | ~10 µM
CCCCCCCCCCCCCCCCOP(=O)(OCCO[C@@H]1O[C@H](CO)[C@@H](O)[C@H](O)[C@@H]1O)OC[C@H]1O[C@@H](n2cc(C)c(=O)[nH]c2=O)C[C@@H]1N=[N+]=[N-] | LAV-Bru | U-937 | 14 d | - | >1 µM
CCN(CC)c1ccc(/C=N/NC(=O)Cn2nc(-c3ccccc3)c3c2-c2ccccc2S(=O)(=O)N3C)cc1 | LAV-1 | PBMC | - | - | >100 µM
FC(F)(c1ccc(-c2ccccc2)cc1)C(F)(F)c1nc2ccccc2o1 | LAI | CEM + CEM-SS | - | - | >100 µM
COc1cc(/C=C2/N=C(C)N(c3nc(C)cc(=O)[nH]3)C2=O)cc(OC)c1OC | - | - | - | - | 71.33 µg/mL
O=C(c1ccc(-c2ccccc2)cc1)C(F)(F)c1nc2ccccc2o1 | LAI | CEM + CEM-SS | - | - | >100 µM
O=C(C(=O)N1CCN(C(=O)c2ccc(O)cc2)CC1)c1c[nH]c2ccccc12 | BRU | MT-2 | - | - | <10 µM
CC(C)C1=C2C3CCC4[C@@]5(C)CC[C@H](OC(=O)CC(C)(C)C(=O)O)C(C)(C)C5CC[C@@]4(C)[C@]3(C)CC[C@@]2(NC(=O)OC2CCNCC2)CC1=O | IIIB | MT-2 | 30% human serum | - | <0.199 µM
O=C(C(=O)N1CCN(C(=O)c2cccc(F)c2)CC1)c1c[nH]c2ccccc12 | BRU | MT-2 | - | - | <10 µM
Cc1nc(CCCCCCC(=O)c2ccccc2)n2nc(NCCCCCCCCCCCCN)ccc12 | IIIB | MT-4 | - | - | >10 µM

Neighbouring rows are from separate reports. ECn: concentration that inhibits the pathogen or its effect by n%.